Measurements taken from patent US20060275317A1, “Vaccine compositions for prevention of chronic and infectious diseases” (Biokit S.A., priority 2003, published 2006).

Tests used:
[1] = test system: human lysozyme; assay: Lysozyme inhibition assay of GST-Tp17 mutants; assay type: biochemical; conditions: 2 units human lysozyme; 45 min 37° C
[2] = target: T1, lysozyme (Homo sapiens, UniProt P61626); assay: Lysozyme binding of GST-Tp17 mutants (blot, FIG. 36)
T1 sequence (P61626 19-148): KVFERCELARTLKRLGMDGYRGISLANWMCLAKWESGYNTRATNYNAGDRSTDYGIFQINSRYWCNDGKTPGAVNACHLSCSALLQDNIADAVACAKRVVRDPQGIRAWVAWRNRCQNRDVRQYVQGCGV

B1: H31A (protein)
chain: MSPILGYWKIKGLVQPTRLLLEYLEEKYEEHLYERDEGDKWRDKKFELGLEFPNLPYYIDGDVKLTQSMAIIRYIADKHNMLGGCPKERAEISMLEGAVLDIRYGVSRIAYSKDFETLKVDFLSKLPEMLKMFEDRLCHKTYLNGDHVTHPDFMLYDALDVVLYMDPMCLDAFPKLVCFKKRIEAIPQIDKYLKSSKYIAWPLQGWQATFGGGDHPPKSDLVPRGSCVSCTTVCPAAGKAKAEKVECALKGGIFRGTLPAADCPGIDTTVTFNADGTAQKVELALEKKSAPSPLTYRGTWMVREDGIVELSLVSSEQSKAPHEKELYELIDSNSVRYMGAPGAGKPSKEMAPFYVLKKTKK
Question: What does the source list for B1?
Answer: lysozyme inhibition relative to wild-type Tp17 [1]: decrease in lysozyme inhibition; ability to bind lysozyme [2]: retained their ability to bind lysozyme
